# Data reported in PubChem BioAssay AID540336 (Broad Institute, 2011).
# Protein sequences, listed by entry. Tags and fused reporters are not part of them.
# UniProt Q5AAJ8, whole entry: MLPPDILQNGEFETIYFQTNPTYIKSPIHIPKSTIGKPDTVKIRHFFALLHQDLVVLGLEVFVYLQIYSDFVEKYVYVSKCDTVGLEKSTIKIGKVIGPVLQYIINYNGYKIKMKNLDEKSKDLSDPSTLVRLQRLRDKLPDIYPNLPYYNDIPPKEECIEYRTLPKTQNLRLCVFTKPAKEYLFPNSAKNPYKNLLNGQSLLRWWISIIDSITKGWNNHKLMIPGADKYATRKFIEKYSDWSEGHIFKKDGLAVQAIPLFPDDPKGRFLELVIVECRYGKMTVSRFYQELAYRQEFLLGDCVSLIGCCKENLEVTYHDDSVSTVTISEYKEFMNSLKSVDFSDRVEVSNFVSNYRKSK
# Only a part is listed here, and it is no random draw. Calls of active or inactive are those of the source.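 The calls were made as follows: active = inhibition of at least 50% in every replicate; inconclusive = best replicate reaches 50% inhibition but some replicates fall short; inactive = the rest.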
# Target: Histone acetyltransferase RTT109 (Candida albicans (strain SC5314 / ATCC MYA-2876)) (UniProt Q5AAJ8)
# Experiment: Rtt109-Vps75 histone acetyltransferase blockade – biochemical, ThioGlo CoA-SH fluorescence, plate reader, primary screen (AID 540336)
# Conditions: purified Rtt109/Vps75, ThioGlo CoA-SH fluorescence, 4 h; at 34.9 µM; stronger effect = higher value
row,SMILES,inhibition
1,O=C(OC1CN2CCC1CC2)c1ccc([N+](=O)[O-])cc1 (configuration not stated),inactive: -9.47%
2,COc1ccc(OP(C)(=O)Nc2ccc(SC(F)(F)F)cc2)cc1 (configuration not stated),inactive: -0.514%
3,CCOC(=O)c1ccc(NP(C)(=O)Oc2ccc(F)cc2)cc1 (configuration not stated),inactive: -6.78%
4,O=[N+]([O-])c1cc([N+](=O)[O-])c(OC2CCCCC2O)c([N+](=O)[O-])c1 (configuration not stated),inactive: 0.421%
5,CCCCCOc1ccc(NP(C)(=O)Oc2ccc(Cl)cc2Cl)cc1 (configuration not stated),inactive: -2.77%
6,CCN(CC)CCCOC(=O)C(O)(c1ccccc1)C1CCCCC1 (configuration not stated),inactive: -12.9%
7,Cc1c([N+](=O)[O-])cc([N+](=O)[O-])c(Br)c1[N+](=O)[O-],inactive: 2.44%
8,COc1ccc(OP(C)(=O)Nc2ccccc2Br)cc1 (configuration not stated),inactive: 2.81%
9,COc1ccccc1OP(C)(=O)Nc1ccc(C)c(C)c1 (configuration not stated),inactive: -2.7%
10,O=C1C(O)=C([N+](=O)[O-])C(=O)C(O)=C1[N+](=O)[O-],inactive: 0.578%
11,Cc1cc(C)cc(OP(C)(=O)Nc2cccc(C(F)(F)F)c2)c1 (configuration not stated),inactive: 2%
12,CP(=O)(OCCOc1ccccc1)OCCOc1ccccc1,inactive: -3.08%
13,CP(=O)(Nc1ccc(Cl)cc1Cl)Oc1ccccc1 (configuration not stated),inactive: -3.7%
14,CCCCCCCCCCCCCCCC1C[N+](C)(C)CCOP(C)(=O)O1 (configuration not stated),inactive: 0.535%
15,CN(C)CCOC(=O)C(O)(c1ccccc1)C1CCCC1 (configuration not stated),inactive: -4.4%
16,COc1ccc(OP(C)(=O)Nc2ccccn2)cc1 (configuration not stated),inactive: -1.86%

row,SMILES,inhibition
1,COc1ccccc1OP(C)(=O)Nc1ccc(Br)cc1 (configuration not stated),inactive: -16.7%
2,CCc1ccc(OP(C)(=O)O)cc1,inactive: 4.7%
3,COc1ccccc1OP(C)(=O)Nc1ccc(C)cc1C (configuration not stated),inactive: 1.33%
4,O=[N+]([O-])c1cc([N+](=O)[O-])c(Nc2ccccn2)c([N+](=O)[O-])c1,inactive: 9.96%
5,Cc1c(NP(C)(=O)Oc2ccc(C(C)C)cc2)c(=O)n(-c2ccccc2)n1C (configuration not stated),inactive: -0.065%
6,CP(=O)(Oc1ccccc1)N1CCOC1=O (configuration not stated),inactive: -12.9%
7,CCc1ccc(OP(C)(=O)Nc2cccnc2)cc1 (configuration not stated),inactive: 2.37%
8,COc1ccccc1OP(C)(=O)Nc1c(C)n(C)n(-c2ccccc2)c1=O (configuration not stated),inactive: 4.32%
9,O=C(OCCCN1CCCC1)C(O)(c1ccccc1)C1CCCCC1 (configuration not stated),inactive: 6.65%
10,CCN(CC)CC(O)COC(=O)C(O)(c1ccccc1)C1CCCCC1 (configuration not stated),inactive: -0.391%
11,COc1ccc(OP(C)(=O)Nc2ccc(Br)cc2)cc1 (configuration not stated),inactive: 0.003%
12,CN(C)C(=O)c1c([N+](=O)[O-])cc([N+](=O)[O-])cc1[N+](=O)[O-],inactive: 4.66%
13,CC(C)(C)c1ccc(OP(C)(=O)O)cc1,inactive: 3.66%
14,COc1ccccc1OP(C)(=O)Nc1ccccc1Br (configuration not stated),inactive: 5.41%
15,CP(=O)(OC12CC3CC(CC(C3)C1)C2)OC12CC3CC(CC(C3)C1)C2,inactive: -37.9%
16,CCOC(=O)c1ccc(NP(C)(=O)Oc2ccc(Cl)cc2)cc1 (configuration not stated),inactive: -2%
